Source: PMC6456747

Tests used:
[1] = target: T1, PhoP-His6 (Salmonella enterica) (UniProt P0DM78); assay: EMSA; conditions: 10 mM Tris pH 7.5, 0.5 mM EDTA, 1 mM MgCl2, 0.5 mM DTT, 50 mM NaCl, 5 ng/ul poly(dI-dC), room temperature 20 min, 15 ul, 80 fmol DNA, 6% native PAGE, recombinant protein, residues 1-224, protein details: C-terminal His6, probe letters rebuilt from the primers and the genome
T1 sequence (looked up): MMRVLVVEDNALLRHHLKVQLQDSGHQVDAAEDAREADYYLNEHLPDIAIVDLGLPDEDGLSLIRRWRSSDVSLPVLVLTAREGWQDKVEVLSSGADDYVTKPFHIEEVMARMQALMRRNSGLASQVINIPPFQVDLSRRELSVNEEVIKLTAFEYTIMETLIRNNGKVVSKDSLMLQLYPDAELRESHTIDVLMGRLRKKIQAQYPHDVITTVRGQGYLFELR

[2] = target: T2, PmrA-His6 (Salmonella enterica) (UniProt P36556); assay: EMSA; conditions: 10 mM Tris pH 7.5, 0.5 mM EDTA, 1 mM MgCl2, 0.5 mM DTT, 50 mM NaCl, 5 ng/ul poly(dI-dC), room temperature 20 min, 15 ul, 80 fmol DNA, 6% native PAGE, recombinant protein, residues 1-222, protein details: C-terminal His6, probe letters rebuilt from the primers and the genome
T2 sequence (looked up): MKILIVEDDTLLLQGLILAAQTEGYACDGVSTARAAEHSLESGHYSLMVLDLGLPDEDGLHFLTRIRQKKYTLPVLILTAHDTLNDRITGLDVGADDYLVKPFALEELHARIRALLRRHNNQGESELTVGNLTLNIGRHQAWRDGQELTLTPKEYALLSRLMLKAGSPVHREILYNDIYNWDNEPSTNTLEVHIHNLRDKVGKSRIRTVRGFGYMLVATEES

## AGCACGCTTTATTCCCGCTCCGATTTAATCTTTTAATATATCTATCAGTTACAACATTTCTTGTTATATTATAAGAATAGAATCAACACCACAATTCCAACATAAATATCACCTGTGTTTAGAGAGAATTTACATTCCAAAAAAATAATAACTAACGCAAATATTGAACACGCGATAAAAAAGTCTATTTCGCTATAAAACCCATTATTATTAAGAGTGGTTAACTCTTCGTTGAATAAAAAATGTCAATGACGTTCCATAATTCAGGAGATGAACTTCACAAGTCATTATATATAACAGGAGGTGCTATGAAA (double strand) [pagD promoter]
[1]; 4 uM PhoP + EIIAGlc-His6 (1-32 uM), binding unaltered
  binding result: binds
[1]; 4 uM PhoP, no EIIANtr
  binding result: binds

## CATTAACCTCTCAGGCAGACAGTGCAGCTAACTTAATAGCAATACAATTAAAATGAAATTCCGCAACGGAAGACCAGGCCAGAAACATAAAAACAGCTTTTGGGCATGCATAAAATGCCTTAAACTTTCGGCGAAAGCAAAGCATAATTCCGTTAAAAATTATCTTTTTACTTCACCTTAATTTCTTAATGTTAATTTAATCTTCATCCAGTAGGGTTCAGCTAAATGCGTTAAAAAATAAGCCCTTTTCTATTGCCGAAATATTTGAAAAGCGGCTTTCAATGGCTGAAGGAAAAATGATGTCGGACTTTTTGCCTTTCTCCCGTCCGGCGA (double strand) [pbgP promoter]
[2]; 4 uM PmrA + EIIANtr-His6 (1-32 uM), binding unaffected
  binding result: binds
[2]; 4 uM PmrA, no EIIANtr
  binding result: binds

Tags and fusion partners may be left off the protein sequences shown.
